Reference: PubChem BioAssay AID1259414 (Drosophila RNAi Screening Center, 2018)

- Assay: 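Host factors increasing or decreasing Wolbachia levels in cultured fly cells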 (primary screen)
- Cells: Drosophila JW18 cells infected with Wolbachia
- Reagent: long dsRNA against Drosophila genes, 0.25 µg dsRNA per well of a 384-well plate
- Duration: 5 days
- Challenge: cells persistently infected with Wolbachia before knock-down; no added drug
- Measured: 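Automated imaging of bacterial rRNA staining divided by host cell count, reported as plate-normalised robust z-score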
- Scale: Wolbachia per cell robust z: higher = more Wolbachia per host cell than the plate typical
- Active means: 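Active if absolute robust z reaches 1.5 in two or more of three replicates, leaving out multi- or no-target dsRNAs, genes unexpressed in JW18 and A1 wells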
The screen tested about 24,000 reagents; below is an unselected part of those with a known target gene and a result. Of all reagents, about 1,210 (5%) are marked active. 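Inactive calls also include excluded dsRNAs with several or no targets, genes unexpressed in JW18, and well A1, regardless of score.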 Unmarked entries are inactive. No sequences are given here.

The opening 2 entries, to show the layout:
CheA56a (GeneID 3772206) [DRSC37844] | Wolbachia per cell robust z, rep 1 = -0.349; Wolbachia per cell robust z, rep 2 = -3.12; Wolbachia per cell robust z, rep 3 = -0.255
Cdc37 (GeneID 38232) [DRSC08648] | Wolbachia per cell robust z, rep 1 = -0.238; Wolbachia per cell robust z, rep 2 = -0.367; Wolbachia per cell robust z, rep 3 = 0.509

The listing, from the start:
CheA56a (GeneID 3772206) [DRSC37844] | Wolbachia per cell robust z, rep 1 = -0.349; Wolbachia per cell robust z, rep 2 = -3.12; Wolbachia per cell robust z, rep 3 = -0.255
Cdc37 (GeneID 38232) [DRSC08648] | Wolbachia per cell robust z, rep 1 = -0.238; Wolbachia per cell robust z, rep 2 = -0.367; Wolbachia per cell robust z, rep 3 = 0.509
Cdc37 (GeneID 38232) [DRSC27723] | Wolbachia per cell robust z, rep 1 = 1.27; Wolbachia per cell robust z, rep 2 = 1.63; Wolbachia per cell robust z, rep 3 = 1.8
Cdc37 (GeneID 38232) [DRSC41554] | Wolbachia per cell robust z, rep 1 = 0.779; Wolbachia per cell robust z, rep 2 = -0.058; Wolbachia per cell robust z, rep 3 = -0.262
Sec5 (GeneID 33563) [DRSC00714] | Wolbachia per cell robust z, rep 1 = 1.6 (active); Wolbachia per cell robust z, rep 2 = 2.07; Wolbachia per cell robust z, rep 3 = 2.82
Lrpprc2 (GeneID 31095) [DRSC18605] | Wolbachia per cell robust z, rep 1 = 0.511; Wolbachia per cell robust z, rep 2 = -0.0897; Wolbachia per cell robust z, rep 3 = -2.14
Lrpprc2 (GeneID 31095) [DRSC29751] | Wolbachia per cell robust z, rep 1 = -0.872; Wolbachia per cell robust z, rep 2 = 1.1; Wolbachia per cell robust z, rep 3 = 0.331
gammaCOP (GeneID 43717) [DRSC16955] | Wolbachia per cell robust z, rep 1 = 1.45 (active); Wolbachia per cell robust z, rep 2 = 2.48; Wolbachia per cell robust z, rep 3 = 2.84
gammaCOP (GeneID 43717) [DRSC39106] | Wolbachia per cell robust z, rep 1 = 1.45 (active); Wolbachia per cell robust z, rep 2 = 3.32; Wolbachia per cell robust z, rep 3 = 2.2
CG8888 (GeneID 36293) [DRSC07294] | Wolbachia per cell robust z, rep 1 = -2.01; Wolbachia per cell robust z, rep 2 = -7.69; Wolbachia per cell robust z, rep 3 = -2.04
CG8888 (GeneID 36293) [DRSC07295] | Wolbachia per cell robust z, rep 1 = -0.181; Wolbachia per cell robust z, rep 2 = 0.543; Wolbachia per cell robust z, rep 3 = -0.206
gcl (GeneID 35864) [DRSC07623] | Wolbachia per cell robust z, rep 1 = 0.655; Wolbachia per cell robust z, rep 2 = 0.502; Wolbachia per cell robust z, rep 3 = -0.81
gcl (GeneID 35864) [DRSC27995] | Wolbachia per cell robust z, rep 1 = -1.3; Wolbachia per cell robust z, rep 2 = -0.0352; Wolbachia per cell robust z, rep 3 = -0.0367
CG33920 (GeneID 3771875) [DRSC37813] | Wolbachia per cell robust z, rep 1 = 0.715; Wolbachia per cell robust z, rep 2 = 0.201; Wolbachia per cell robust z, rep 3 = 1.35
ds (GeneID 33245) [DRSC00815] | Wolbachia per cell robust z, rep 1 = -0.887; Wolbachia per cell robust z, rep 2 = 0.64; Wolbachia per cell robust z, rep 3 = 1.45
CG15461 (GeneID 50122) [DRSC20532] | Wolbachia per cell robust z, rep 1 = -0.964; Wolbachia per cell robust z, rep 2 = 0.252; Wolbachia per cell robust z, rep 3 = 0.202
